Target: endogenous TRAF6 of LPS-treated macrophages / Rv2626c-expressing cells
Test: cell-based or functional assay

For rRv2626c-WT, the IC50 (inflammatory response of LPS-treated macrophages, FIG. 14) was 2.5 µg/mL.
